Source: patent publication US20030195350A1, “Individualization of therapy with antiviral agents” (priority 2001, published 2003)

Tested on: 1X-Ab
Assay: Effect of the ratio 1U:1X on determination of 1X concentration by ELISA
Format: binding, rabbit
Conditions: for [1X] × 10^6 (M): fixed 1X 3 × 10^−6 M

Compound: Cn1c(=O)[nH]c2[nH]c(=O)[nH]c2c1=O [1-Methyluric acid]
- [1X] × 10^6 (M) (1U:1X ratio 0.50): 2.75 × 10^6 (M)
- [1X] × 10^6 (M) (1U:1X ratio 1.00): 3.25 × 10^6 (M)
- [1X] × 10^6 (M) (1U:1X ratio 1.50): 3.25 × 10^6 (M)
- [1X] × 10^6 (M) (1U:1X ratio 2.00): 3.60 × 10^6 (M)
- apparent increase of 1X concentration (1U:1X ratio 2.5): 22%
- [1X] × 10^6 (M) (1U:1X ratio 2.50): 3.65 × 10^6 (M)
- apparent increase of 1X concentration (1U:1X ratio 3.0): 32%
- [1X] × 10^6 (M) (1U:1X ratio 3.00): 3.95 × 10^6 (M)
- [1X] × 10^6 (M) (1U:1X ratio 4.00): 4.20 × 10^6 (M)
- [1X] × 10^6 (M) (1U:1X ratio 5.00): 4.30 × 10^6 (M)
- [1X] × 10^6 (M) (1U:1X ratio 6.00): 4.50 × 10^6 (M)
- [1X] × 10^6 (M) (1U:1X ratio 8.00): 4.30 × 10^6 (M)
